Sequences of proteins named here, by UniProt entry; tags and fusion partners are left off.
UniProt P03206, whole entry: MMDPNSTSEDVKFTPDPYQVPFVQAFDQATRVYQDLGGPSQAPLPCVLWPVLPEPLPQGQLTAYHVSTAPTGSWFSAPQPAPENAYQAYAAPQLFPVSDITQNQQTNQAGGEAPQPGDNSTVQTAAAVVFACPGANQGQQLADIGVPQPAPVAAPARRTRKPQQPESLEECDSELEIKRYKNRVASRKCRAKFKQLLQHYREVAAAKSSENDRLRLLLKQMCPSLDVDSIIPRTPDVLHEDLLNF

Only a part is listed here, and it is no random draw. Some salts and complexes are drawn in separate pieces, as the source files them; their charges need not balance. The source made the active and inactive calls. Rule as the data show it: active = inhibition above about 33%; inactive = the rest.
The molecules below were run against Lytic switch protein BZLF1 (Epstein-Barr virus (strain B95-8)) (UniProt P03206) (assay: Zta-DNA interaction blockers, Epstein-Barr virus – biochemical, fluorescence polarization, single concentration, counter-screen for EBNA-1 inhibitor project, primary screen (AID 2234)). Details: ZTA-DNA binding, at 11 µM, hits give high values.
`Cc1ccc(C)c(NP(C)(=O)Oc2ccccc2)c1` (stereo not drawn) was tested, and the inhibition was inactive: 5.87%. For `CP(=O)(Nc1cccc(Br)c1)Oc1ccccc1` (stereo not drawn), the inhibition was inactive: -1.2%. `Cc1cc(C)cc(OP(C)(=O)Nc2ccccn2)c1` (stereo not drawn) was tested, and the inhibition was inactive: 12.3%. With `CCOC(=O)c1ccc(NP(C)(=O)Oc2cc(C)cc(C)c2)cc1` (stereo not drawn) the inhibition was inactive: -1.35%. With `Cc1cc(C)cc(OP(C)(=O)Nc2ccc(C)cc2C)c1` (stereo not drawn) the inhibition was inactive: 1.13%. With `COc1ccccc1OP(C)(=O)Nc1cccc(Br)c1` (stereo not drawn) the inhibition was inactive: 3.24%. `CC1=NCCc2c1[nH]c1ccccc21.O=[N+]([O-])c1cc([N+](=O)[O-])c(O)c([N+](=O)[O-])c1` was tested, and the inhibition was inactive: -7.97%. In the case of `O=C(O)c1cccc(Nc2c([N+](=O)[O-])cc([N+](=O)[O-])cc2[N+](=O)[O-])c1`, the inhibition is reported as inactive: 3.24%. In the case of `CP(=O)(Nc1ccc(SC(F)(F)F)cc1)Oc1ccccc1` (stereo not drawn), the inhibition is reported as inactive: -8.75%. For `CCCOc1ccc(NP(C)(=O)Oc2ccc(Cl)cc2)cc1` (stereo not drawn), the inhibition was inactive: 1.7%. In the case of `COc1ccccc1OP(C)(=O)Nc1c(C)cccc1C` (stereo not drawn), the inhibition is reported as inactive: 17.1%. In the case of `CN1CCCCC1COC(=O)C1(O)c2ccccc2CCc2ccccc21` (stereo not drawn), the inhibition is reported as inactive: -1.46%. For `O=[N+]([O-])c1cc([N+](=O)[O-])c(Nc2nnnn2CCO)c([N+](=O)[O-])c1`, the inhibition was inactive: -3.91%. In the case of `CC1=C2N=C(C=C3N=C(C(C)=C4[N-][C@@](C)([C@@H]5N=C1[C@](C)(CCC(=O)NC[C@@H](C)OP(=O)([O-])O[C@H]1[C@@H](O)[C@@H](n6cnc7cc(C)c(C)cc76)O[C@@H]1CO)[C@H]5CC(N)=O)[C@@](C)(CC(N)=O)[C@@H]4CCC(N)=O)[C@@](C)(CC(N)=O)[C@@H]3CCC(N)=O)C(C)(C)[C@@H]2CCC(N)=O.[C-]#N.[Co+3]`, the inhibition is reported as inactive: 1.06%. For `CCOC(=O)C(CC)C1=NC(C)(C)Cc2ccccc21.O=[N+]([O-])c1cc([N+](=O)[O-])c(O)c([N+](=O)[O-])c1` (stereo not drawn), the inhibition was inactive: -2.23%. With `Cc1nc2ccc3ccccc3c2s1.O=[N+]([O-])c1cc([N+](=O)[O-])c(O)c([N+](=O)[O-])c1` the inhibition was inactive: 1.66%. `O=[N+]([O-])c1cc([N+](=O)[O-])c(-c2cnn(-c3ccccc3)c2)c([N+](=O)[O-])c1` was tested, and the inhibition was inactive: 3.59%. `O=[N+]([O-])c1cc([N+](=O)[O-])c(-n2nnc3ccccc32)c([N+](=O)[O-])c1` was tested, and the inhibition was inactive: 18.6%. For `CP(=O)(Nc1ccccn1)Oc1ccc(Cl)cc1` (stereo not drawn), the inhibition was inactive: -3.95%. In the case of `CCOC(=O)c1ccc(NP(C)(=O)Oc2ccc(OC)cc2)cc1` (stereo not drawn), the inhibition is reported as inactive: -11.6%. For `O=[N+]([O-])c1cc([N+](=O)[O-])c(O)c([N+](=O)[O-])c1.c1ccc(Oc2ccncc2)cc1`, the inhibition was inactive: 6.77%. `CCOP(C)(=S)SCC(=O)NC(C)C(=O)O` (stereo not drawn) was tested, and the inhibition was inactive: -1.78%. With `CCc1ccc(OP(C)(=O)N2CCN(c3ccc([N+](=O)[O-])cc3)CC2)cc1` (stereo not drawn) the inhibition was inactive: -15.2%. For `CP(=O)(NC(=O)Nc1ccccc1)Oc1ccccc1` (stereo not drawn), the inhibition was inactive: -4.07%. With `Cc1cc(C)cc(OP(C)(=O)Nc2ccc(SC(F)(F)F)cc2)c1` (stereo not drawn) the inhibition was inactive: 4.32%. With `Cc1cccc(C)c1OP(C)(=O)Nc1ccc(SC(F)(F)F)cc1` (stereo not drawn) the inhibition was inactive: -6.62%. For `CP(=O)(Nc1ccc(SC(F)(F)F)cc1)Oc1ccc(Cl)cc1` (stereo not drawn), the inhibition was inactive: 12.9%. `CP(=O)(Oc1ccccc1)OC(c1ccccc1)C(F)(F)F` (stereo not drawn) was tested, and the inhibition was inactive: -16.8%. For `CP(=O)(Nc1ccccc1Br)Oc1ccccc1` (stereo not drawn), the inhibition was inactive: 4.54%. In the case of `COc1ccccc1OP(C)(=O)Nc1ccccc1` (stereo not drawn), the inhibition is reported as inactive: -3.13%. With `CP(=S)(Nn1cnnc1)Oc1ccccc1` (stereo not drawn) the inhibition was inactive: 11.7%. `Cc1cc(C)cc(OP(C)(N)=O)c1` (stereo not drawn) was tested, and the inhibition was inactive: -9.89%. For `COc1ccccc1OP(C)(=O)Nc1cc(Cl)ccc1C` (stereo not drawn), the inhibition was inactive: 7.51%. With `COc1ccc(OP(C)(=O)Nc2cccc(F)c2)cc1` (stereo not drawn) the inhibition was inactive: -5.01%. In the case of `COc1ccccc1OP(C)(=O)Nc1ccc(C)cc1` (stereo not drawn), the inhibition is reported as inactive: 14.2%. For `Cc1ccc(NP(C)(=O)Oc2ccccc2)c(C)c1` (stereo not drawn), the inhibition was inactive: 0.22%. In the case of `CCOC(=O)c1ccc(NP(C)(=O)Oc2ccccc2)cc1` (stereo not drawn), the inhibition is reported as inactive: -6.33%. With `O=[N+]([O-])c1ccc2c(c1)C=Nc1ccccc1O2` the inhibition was inactive: 22.4%. `CC(C)(C)c1ccc(OP(C)(=O)Nc2ccc(SC(F)(F)F)cc2)cc1` (stereo not drawn) was tested, and the inhibition was inactive: -15.1%. For `Cc1cccc(C)c1OP(C)(N)=O` (stereo not drawn), the inhibition was inactive: -2%. With `O=[N+]([O-])c1cc([N+](=O)[O-])c(Nc2cccnc2)c([N+](=O)[O-])c1` the inhibition was inactive: -13.9%. For `CCN(CC)CCCOC(=O)C(O)(c1ccccc1)c1ccccc1`, the inhibition was inactive: -8.73%. In the case of `CP(=O)(Nc1ccccn1)Oc1ccccc1` (stereo not drawn), the inhibition is reported as inactive: 15.7%. In the case of `COc1ccccc1OP(C)(=O)Nc1ccc(C)cc1C` (stereo not drawn), the inhibition is reported as inactive: -4.76%. In the case of `CCc1ccc(OP(C)(=O)O)cc1`, the inhibition is reported as inactive: -5.29%. In the case of `O=[N+]([O-])c1cc([N+](=O)[O-])c(Nc2ccccn2)c([N+](=O)[O-])c1`, the inhibition is reported as inactive: 4.35%. `Cc1c(NP(C)(=O)Oc2ccc(C(C)C)cc2)c(=O)n(-c2ccccc2)n1C` (stereo not drawn) was tested, and the inhibition was inactive: 10.3%. For `COc1ccc(OP(C)(=O)Nc2ccccn2)cc1` (stereo not drawn), the inhibition was inactive: -4.44%. `CN(C)CCOC(=O)C(O)(c1ccccc1)C1CCCC1` (stereo not drawn) was tested, and the inhibition was inactive: -0.92%. `COc1ccccc1OP(C)(=O)Nc1ccc(Br)cc1` (stereo not drawn) was tested, and the inhibition was inactive: 6.75%. In the case of `CP(=O)(OCCOc1ccccc1)OCCOc1ccccc1`, the inhibition is reported as inactive: -9.74%. With `CP(=O)(Nc1ccc(Cl)cc1Cl)Oc1ccccc1` (stereo not drawn) the inhibition was inactive: 12.6%. With `Cc1nc2ccc3ccccc3c2o1.O=[N+]([O-])c1cc([N+](=O)[O-])c(O)c([N+](=O)[O-])c1` the inhibition was inactive: 13.2%. In the case of `COc1ccccc1OP(C)(=O)Nc1ccc(C)c(C)c1` (stereo not drawn), the inhibition is reported as inactive: 8.79%. In the case of `COc1ccc(OP(C)(=O)Nc2ccccc2Br)cc1` (stereo not drawn), the inhibition is reported as inactive: 12.4%. In the case of `Cc1cc(C)cc(OP(C)(=O)Nc2cccc(C(F)(F)F)c2)c1` (stereo not drawn), the inhibition is reported as inactive: 4.61%. For `CCOC(=O)c1ccc(NP(C)(=O)Oc2ccc(Cl)cc2)cc1` (stereo not drawn), the inhibition was inactive: 1.1%. With `CP(=O)(OC12CC3CC(CC(C3)C1)C2)OC12CC3CC(CC(C3)C1)C2` the inhibition was inactive: 5.65%. `Nc1ccc2c(ccc3cccnc32)n1.O=[N+]([O-])c1cc([N+](=O)[O-])c(O)c([N+](=O)[O-])c1` was tested, and the inhibition was inactive: -8.36%. With `CN(C)C(=O)c1c([N+](=O)[O-])cc([N+](=O)[O-])cc1[N+](=O)[O-]` the inhibition was inactive: 4.1%. In the case of `CC(C)(C)c1ccc(OP(C)(=O)O)cc1`, the inhibition is reported as inactive: -5.92%. With `COc1ccccc1OP(C)(=O)Nc1ccccc1Br` (stereo not drawn) the inhibition was inactive: -17.8%. With `CP(=O)(Nc1ccc(Cl)cc1)Oc1ccc(F)cc1` (stereo not drawn) the inhibition was inactive: -3.39%. `COc1ccccc1OP(C)(=O)Nc1c(C)n(C)n(-c2ccccc2)c1=O` (stereo not drawn) was tested, and the inhibition was inactive: -26.1%. For `O=C(OCCCN1CCCC1)C(O)(c1ccccc1)C1CCCCC1` (stereo not drawn), the inhibition was inactive: -16.9%. With `CP(=O)(Oc1ccccc1)N1CCOC1=O` (stereo not drawn) the inhibition was inactive: -15.1%. With `CCc1ccc(OP(C)(=O)Nc2cccnc2)cc1` (stereo not drawn) the inhibition was inactive: -7.63%. With `CCN(CC)CC(O)COC(=O)C(O)(c1ccccc1)C1CCCCC1` (stereo not drawn) the inhibition was inactive: -10.7%. `COc1ccc(OP(C)(=O)Nc2ccc(Br)cc2)cc1` (stereo not drawn) was tested, and the inhibition was inactive: -12.3%. For `Cc1ccccc1NP(C)(=O)Nc1ccccc1C`, the inhibition was inactive: 17.2%. For `CP(=O)(Nc1ccc2c(c1)OCCO2)Oc1ccccc1` (stereo not drawn), the inhibition was inactive: -13.6%. With `CCOP(C)(=S)SCC(=O)NC(C)(CC)C(=O)O` (stereo not drawn) the inhibition was inactive: -3.48%. In the case of `CP(=O)(Nc1ccc(SC(F)(F)F)cc1)Oc1ccc(F)cc1` (stereo not drawn), the inhibition is reported as inactive: -19.4%. In the case of `O=[N+]([O-])c1cc([N+](=O)[O-])c(NCC2CCS(=O)(=O)C2)c([N+](=O)[O-])c1` (stereo not drawn), the inhibition is reported as inactive: -15.1%. In the case of `CN(C)CCOC(=O)C(O)(c1ccccc1)C1CCCCC1` (stereo not drawn), the inhibition is reported as inactive: -10.8%. For `COc1ccc(NP(C)(=O)Oc2ccccc2OC)cc1` (stereo not drawn), the inhibition was inactive: -3.35%. In the case of `COc1ccc(OP(C)(=O)Nc2cccc(Br)c2)cc1` (stereo not drawn), the inhibition is reported as inactive: -9.03%. For `CP(=O)(Nc1ccccc1)Oc1ccc(F)cc1` (stereo not drawn), the inhibition was inactive: 3.88%. In the case of `CCCCCOc1ccc(NP(C)(=O)Oc2ccc(Cl)cc2Cl)cc1` (stereo not drawn), the inhibition is reported as inactive: 0.42%. For `O=[N+]([O-])c1cc([N+](=O)[O-])c(OC2CCCCC2O)c([N+](=O)[O-])c1` (stereo not drawn), the inhibition was inactive: -0.29%. `CCN(CC)CCCOC(=O)C(O)(c1ccccc1)C1CCCCC1` (stereo not drawn) was tested, and the inhibition was inactive: -7.63%. In the case of `CCOC(=O)c1ccc(NP(C)(=O)Oc2ccc(F)cc2)cc1` (stereo not drawn), the inhibition is reported as inactive: -12.4%. `COc1ccc(OP(C)(=O)Nc2ccc(SC(F)(F)F)cc2)cc1` (stereo not drawn) was tested, and the inhibition was inactive: 14.3%. In the case of `COc1ccc2c(c1O)-c1c(O)c(OC)cc3c1[C@H](C2)[N+](C)(C)CC3.O=[N+]([O-])c1cc([N+](=O)[O-])c([O-])c([N+](=O)[O-])c1[O-]`, the inhibition is reported as inactive: 7.59%. In the case of `O=C(OC1CN2CCC1CC2)c1ccc([N+](=O)[O-])cc1` (stereo not drawn), the inhibition is reported as inactive: 0.27%. For `O=C(OCCN1CCN(CCOCc2ccccc2)CC1)C(O)(c1ccccc1)c1ccccc1`, the inhibition was inactive: -1.59%. `CP(=O)(Nc1ccccc1F)Oc1ccccc1` (stereo not drawn) was tested, and the inhibition was inactive: -1.31%. In the case of `CC(C)c1ccc(OP(C)(=O)Nc2ccc(SC(F)(F)F)cc2)cc1` (stereo not drawn), the inhibition is reported as inactive: 5.79%.
